Experimental data: PubChem BioAssay AID540276 (National Center for Advancing Translational Sciences (NCATS), 2011)
Shown are results outside the selection of hits, which stands elsewhere. Results filed as inconclusive are left out. The source made the active and inactive calls. Calls come from the whole dose curve; tested in HEK293 cells.

Test: qHTS for inhibitors of binding or entry into cells for Marburg Virus
Settings: Marburg virus pseudotyped entry inhibition, cell reporter; at 37.8 µM (top of the series)
% is set by controls: 0 for no effect and ±100 for the full control effect.

SMILES	activity change, negative = inhibition
Clc1ccc(N2CCN(Cc3c[nH]c4ncccc34)CC2)cc1	inactive: -24.9%
